{"source": "PubChem BioAssay AID504761 (Drosophila RNAi Screening Center, 2011)", "aim": "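Insect host genes that dengue virus relies on to spread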 (primary screen)", "cells": "D.Mel-2 cells from Drosophila", "knock-down reagent": "long dsRNA against Drosophila genes", "challenge": "infection with dengue virus type 2; dose and infection time not stated", "measurement": "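Per well on two replicate plates, imaging gave the percent of cells positive for viral envelope protein, ranked by infection, and a nuclear count of cells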", "direction": "infection score: higher = more virus-infected cells; cell count: higher = more cells in the well", "hit rule": "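Very low infection ranking in both replicate wells (chance probability at most 0.065), then a retest showing infection dropped 1.5-fold or more at p below 0.05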", "meaning of the calls": "active = confirmed: knock-down lowers infection; inactive = not picked or not confirmed", "note": "The deposit covers about 22,000 reagents; shown is a random part of those with a known target gene and a result. Over the whole deposit, 116 (0.52%) got an active call. 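Calls depend on retest data that are not deposited; infection was ranked per plate without normalising between plates; the unit of the infection score is not given.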 Raw values vary from plate to plate and are shown uncorrected. Unmarked entries are inactive. Reagents against one gene are numbered here. A plus sign joins genes that one reagent is predicted to hit. Further read-outs or replicates are left out here. Not given: the amount of reagent, the time to read-out."}
{"gene knocked down": "CG13138", "dsRNA no.": 1, "infection score, replicate 1": 1.27, "cell count, replicate 1": 6590}
{"gene knocked down": "CG6788 + CR32496", "dsRNA no.": 1, "infection score, replicate 1": 7.04, "cell count, replicate 1": 6123}
{"gene knocked down": "CG32708", "dsRNA no.": 1, "infection score, replicate 1": 15.3, "cell count, replicate 1": 6143}
{"gene knocked down": "CG32708", "dsRNA no.": 2, "infection score, replicate 1": 30.7, "cell count, replicate 1": 3327}
{"gene knocked down": "Axud1 (AXIN1 up-regulated 1)", "dsRNA no.": 1, "infection score, replicate 1": 6.16, "cell count, replicate 1": 6265}
{"gene knocked down": "CG31740", "dsRNA no.": 1, "infection score, replicate 1": 2.49, "cell count, replicate 1": 5709}
{"gene knocked down": "Start1", "dsRNA no.": 1, "infection score, replicate 1": 19.6, "cell count, replicate 1": 6695}
{"gene knocked down": "Start1", "dsRNA no.": 2, "infection score, replicate 1": 13.1, "cell count, replicate 1": 5818}
{"gene knocked down": "mRpL32 (mitochondrial ribosomal protein L32)", "dsRNA no.": 1, "infection score, replicate 1": 19.2, "cell count, replicate 1": 5921}
{"gene knocked down": "Patsas", "dsRNA no.": 1, "infection score, replicate 1": 13.9, "cell count, replicate 1": 6289}
{"gene knocked down": "Patsas", "dsRNA no.": 2, "infection score, replicate 1": 22.9, "cell count, replicate 1": 3257}
{"gene knocked down": "Grip91 (Gamma-tubulin ring protein 91)", "dsRNA no.": 1, "infection score, replicate 1": 16.9, "cell count, replicate 1": 6534}
{"gene knocked down": "ohgt (ohgata)", "dsRNA no.": 1, "infection score, replicate 1": 12.6, "cell count, replicate 1": 6208}
{"gene knocked down": "ohgt (ohgata)", "dsRNA no.": 2, "infection score, replicate 1": 5.67, "cell count, replicate 1": 6221}
{"gene knocked down": "CG16863", "dsRNA no.": 1, "infection score, replicate 1": 2.2, "cell count, replicate 1": 6397}
{"gene knocked down": "CG7126", "dsRNA no.": 1, "infection score, replicate 1": 1.65, "cell count, replicate 1": 6983}
{"gene knocked down": "CG7126", "dsRNA no.": 2, "infection score, replicate 1": 2.83, "cell count, replicate 1": 6190}
{"gene knocked down": "CG13312", "dsRNA no.": 1, "infection score, replicate 1": 1.26, "cell count, replicate 1": 6488}
{"gene knocked down": "CG13312", "dsRNA no.": 2, "infection score, replicate 1": 2.51, "cell count, replicate 1": 6580}
{"gene knocked down": "CG30050", "dsRNA no.": 1, "infection score, replicate 1": 3.61, "cell count, replicate 1": 6263}
{"gene knocked down": "Gr93a (Gustatory receptor 93a)", "dsRNA no.": 1, "infection score, replicate 1": 1.18, "cell count, replicate 1": 508}
